Data from US20220387579A1.

What was measured:
EBOV/Mak GP = EBOV/Mak GP (UniProt P87666); test: SPR
Ebola = Ebola (UniProt P87666); test: ELISA

## KZ52
EBOV/Mak GP
  Kd: 2.36 nM
Ebola
  EC50: 0.34 mg/L
